Experimental findings from publication PMC11891622 (Angewandte Chemie (International Ed. in English), 2025) are described below.

The target in this experiment is SARS-CoV-2 Nucleocapsid protein N-terminal globular domain NTD (44–180) (Severe acute respiratory syndrome coronavirus 2, UniProt P0DTC9). It counts as binding. Conditions: pH 6.5.

Regarding “Ac‐Glu‐Gly‐Glu‐Gly‐Glu‐Gly‐Gly‐Glu‐gggg‐Glu‐Gly‐Gly‐Glu‐Gly‐Glu‐(β‐Ala)‐Glu [P-PNA]”, the “average of the dissociation constants (Kd) for the most perturbed residues” value was “in the range of hundred micromolar”.
